Measured values: publication PMC3048900

Molecular target: Nterm1 (UniProt position 344, SIQSRGLFGAI)
Assay: NMR
Settings: DPC micelle-bound helical hairpin

**Q.** With “Hemagglutinin HA2 fusion peptide HAfp23 (Influenza A virus (serotype H1; strain not stated))” as the substance, how does the pKa read?
**A.** The pKa was 8.73±0.07.
